Source: ChEMBL document CHEMBL5385915 (J Med Chem, 2024)

Legend:
[1] = system: Mycobacterium tuberculosis variant bovis; assay: Antibacterial activity against Mycobacterium bovis BCG harboring pTIC6-fbpC overexpressing Ag85C assessed as fold increase in MIC by end point resazurin assay relative to empty vector control
[2] = system: Mycobacterium tuberculosis variant bovis; assay: Antibacterial activity against Mycobacterium bovis BCG harboring pTIC6-fbpB overexpressing Ag85B assessed as fold increase in MIC by end point resazurin assay relative to empty vector control

Row | Structure (SMILES) | fold change (FC) [1] | fold change (FC) [2]
1 | CNC[C@@H]1C[C@H](c2ccc(OC(F)(F)F)cc2)N1Cc1ccccc1OC(F)(F)F | 2 | 2
2 | O=c1c2ccccc2[se]n1-c1ccccc1 | 3 | 3
3 | Brc1cc(Br)cc([C@H]2C[C@@H](CN3CCCC3)N2Cc2ccccc2Br)c1 | 2 | 2
